According to paper PMC9504208, “Comprehensive Study of Antiretroviral Drug Permeability at the Cervicovaginal Mucosa via an In Vitro Model” (Pharmaceutics, 2022):

Tested on: HEC-1A cell layers
Assay: Transepithelial electrical resistance (TEER) of HEC-1A cell layers
Format: cell-based, human

Question: For `C[S+](C)[O-]` [DMSO], which “Reduction of TEER values” (buffer containing 1% DMSO applied to apical compartment) is on record?
Answer: no reduction

Question: What about the “Reduction of TEER values” (buffer containing 1% DMSO applied to basolateral compartment) of the same compound?
Answer: 60–70%
